A mixed list of measured activities; the numbers were collected in NIAID ChemDB.

Common to all: tests on isolated targets; species: Herpes simplex virus 1; protein: Thymidine kinase

ICn is the concentration giving n% inhibition. Lines come from different laboratories, so protocols vary. Inhibition is in % at the dose shown (toxicity tests: loss of growth or viability).

CCc1cn([C@H]2C[C@H](O)[C@@H](CNC(=O)Cc3ccccc3)O2)c(=O)[nH]c1=O ; read-out: IC50 ; value: 1 µM
C/C=C/c1cn([C@@H]2O[C@H](CO)[C@@H](O)[C@@H]2O)c(=O)[nH]c1=O ; strain or isolate: C42 ; dose: 5 µM ; read-out: inhibition ; value: 21%
O=c1[nH]c(=O)n([C@@H]2O[C@H](CO)[C@@H](O)[C@@H]2F)cc1/C=C/Br ; strain or isolate: F ; dose: 200 µM ; read-out: inhibition ; value: 73%
O=C(NC[C@H]1O[C@@H](n2cc(I)c(=O)[nH]c2=O)C[C@@H]1O)c1ccccc1 ; read-out: IC50 ; value: 85 µM
Nc1nc(=O)n([C@@H]2O[C@H](CO)[C@@H](O)[C@@H]2F)cc1/C=C/C(=O)O ; strain or isolate: F ; dose: 200 µM ; read-out: inhibition ; value: 4.3%
COC(=O)C[C@@H](SCCO)n1cnc2c(Cl)nc(N)nc21 ; read-out: Ki ; value: 477 µM
CCc1cn([C@H]2C[C@H](O)[C@@H](CO)O2)c(=O)[nH]c1=O ; read-out: IC50 ; value: 0.34 µM
Cc1ccc(S(=O)(=O)NC[C@H]2O[C@@H](n3cc(C)c(=O)[nH]c3=O)C[C@@H]2O)cc1 ; read-out: IC50 ; value: >200 µM
CCc1cn([C@H]2C[C@H](O)[C@@H](CNC(=O)COc3ccccc3)O2)c(=O)[nH]c1=O ; read-out: IC50 ; value: 0.7 µM
Nc1nc2c(ncn2[C@@H](CCO)OCCO)c(=O)[nH]1 ; read-out: Ki ; value: 1311 µM
O=c1[nH]c(=O)n([C@@H]2O[C@H](CO)[C@@H](O)[C@@H]2O)cc1/C=C/Br ; strain or isolate: 91075 ; dose: 10 µM ; read-out: inhibition ; value: <0%
O=c1[nH]c(=O)n([C@@H]2O[C@H](CO)[C@@H](O)[C@@H]2F)cc1/C=C/Cl ; strain or isolate: F ; dose: 200 µM ; read-out: inhibition ; value: 58.6%
CCc1cn([C@H]2C[C@H](O)[C@@H](CNS(=O)(=O)c3ccccc3)O2)c(=O)[nH]c1=O ; read-out: IC50 ; value: 15.2 µM
C=Cc1cn([C@@H]2O[C@H](CO)[C@@H](O)[C@@H]2F)c(=O)nc1N ; strain or isolate: F ; dose: 200 µM ; read-out: inhibition ; value: 47.4%
Nc1nc(Cl)c2ncn([C@@H](CCO)OCCO)c2n1 ; read-out: Ki ; value: 1777 µM
Nc1nc(=O)n([C@@H]2O[C@H](CO)[C@@H](O)[C@@H]2F)cc1/C=C/Br ; strain or isolate: F ; dose: 200 µM ; read-out: inhibition ; value: 41.1%
C#C[C@H]1O[C@@H](n2cc(C)c(=O)[nH]c2=O)C[C@@H]1O ; strain or isolate: TR7 ; read-out: IC50 ; value: 3 µM
Nc1nc2c(ncn2CC[C@H](O)CO)c(=O)[nH]1 ; read-out: Ki ; value: 1.69 µM

A second listing of 2 rows from above:

smiles,strain or isolate,dose,read-out,value
O=c1[nH]c(=O)n([C@@H]2O[C@H](CO)[C@@H](O)[C@@H]2F)cc1/C=C/Cl,F,200 µM,inhibition,58.6%
Nc1nc(=O)n([C@@H]2O[C@H](CO)[C@@H](O)[C@@H]2F)cc1/C=C/Br,F,200 µM,inhibition,41.1%